According to paper PMC12148588 (eBioMedicine, 2025):

Molecular target: SARS-CoV-2 RBD of the Wuhan strain (Acro Biosystems SPD-C82E9-25) (SARS-CoV-2, Wuhan strain, UniProt P0DTC2)
Settings: both partners purified

B1: MB025_A09L (antibody, V domains shown)
VH: EVQLVESGGGLVQPGGSLRLSCAASGFSVSIFYMNWVRQAPGKGLEWVSSVYSGETTYYADSVRGRFTISRDNSKSTLYLQMNSLRPEDTAVYYCARGVDYRTNRTEGGAFDIWGQGTMVTVSS
VL: QSALTQPASVSGSPGQSIPISCTGTSSDFGNYNLISWYQQHPGKAPKLMIYEGTKRPSGVSDRFSGSKSANTASLTISGLQAEDEADYYCCSYAGSSTWMFGGGTKLTVL
  fold improvement of binding over the germline version MB025_A09Lgl: > 1000 fold
